The term Kd denotes the free concentration of one partner at which half of the binding sites on the other are occupied at equilibrium, for simple one-to-one binding. A higher Kd goes with a looser complex.

The experiment has as its target SARS2-RBD-Fc (SARS-CoV-2, UniProt P0DTC2). Description: SPR. Background: In SPR one partner is held on a chip, and binding of the other changes the refractive index at the surface.

B1: monomeric tagged soluble pangolin ACE2 (pangolin ACE2-CT) (domain or fragment)
chain: QSTSDEEAKTFLEKFNSEAEELSYQSSLASWNYNTNITDENVQKMNVAGAKWSTFYEEQSKIAKNYQLQNIQNDTIKRQLQALQLSGSSALSADKNQRLNTILNTMSTIYSTGKVCNPGNPQECSLLEPGLDNIMESSKDYNERLWAWEGWRSEVGKQLRPLYEEYVVLKNEMARANHYEDYGDYWRGDYEAEGANGYNYSRDHLIEDVEHIFTQIKPLYEHLHAYVRAKLMDNYPSHISPTGCLPAHLLGDMWGRFWTNLYPLTVPFRQKPNIDVTDAMVNQTWDANRIFKEAEKFFVSVGLPKMTQTFWENSMLTEPGDGRKVVCHPTAWDLGKHDFRIKMCTKVTMDDFLTAHHEMGHIQYDMAYAMQPYLLRNGANEGFHEAVGEIMSLSAATPKHLKNIGLLPPDFYEDNETEINFLLKQALTIVGTLPFTYMLEKWRWMVFSGQIPKEQWMKKWWEMKREIVGVVEPVPHDETYCDPASLFHVANDYSFIRYYTRTIYQFQFQEALCQTAKHEGPLHKCDISNSAEAGQKLLQMLSLGKSKPWTLALERVVGTKNMDVRPLLNYFEPLLTWLKEQNKNSFVGWNTDWSPY
B1 registered a Kd of 986 nM.

Values taken from PMC8059821 (2021).
